Article PMC10030653, “ClpC2 protects mycobacteria against a natural antibiotic targeting ClpC1-dependent protein degradation” (Communications Biology, 2023)
The exact form of at least one protein or probe is not confirmed. At least one verdict was read from the data and is not stated in words by the source.

Sequences of proteins named here, by UniProt entry; tags and fusion partners are left off. A change or cut given only in a name is not applied to a line headed by its entry.
UniProt P9WPC7: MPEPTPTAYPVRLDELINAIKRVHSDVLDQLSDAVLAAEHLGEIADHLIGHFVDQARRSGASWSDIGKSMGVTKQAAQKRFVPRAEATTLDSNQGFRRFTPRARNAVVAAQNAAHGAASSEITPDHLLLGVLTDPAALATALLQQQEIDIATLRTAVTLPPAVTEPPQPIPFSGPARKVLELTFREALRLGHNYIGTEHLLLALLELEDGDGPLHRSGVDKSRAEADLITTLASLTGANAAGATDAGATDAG
UniProt P9WPC9, whole entry: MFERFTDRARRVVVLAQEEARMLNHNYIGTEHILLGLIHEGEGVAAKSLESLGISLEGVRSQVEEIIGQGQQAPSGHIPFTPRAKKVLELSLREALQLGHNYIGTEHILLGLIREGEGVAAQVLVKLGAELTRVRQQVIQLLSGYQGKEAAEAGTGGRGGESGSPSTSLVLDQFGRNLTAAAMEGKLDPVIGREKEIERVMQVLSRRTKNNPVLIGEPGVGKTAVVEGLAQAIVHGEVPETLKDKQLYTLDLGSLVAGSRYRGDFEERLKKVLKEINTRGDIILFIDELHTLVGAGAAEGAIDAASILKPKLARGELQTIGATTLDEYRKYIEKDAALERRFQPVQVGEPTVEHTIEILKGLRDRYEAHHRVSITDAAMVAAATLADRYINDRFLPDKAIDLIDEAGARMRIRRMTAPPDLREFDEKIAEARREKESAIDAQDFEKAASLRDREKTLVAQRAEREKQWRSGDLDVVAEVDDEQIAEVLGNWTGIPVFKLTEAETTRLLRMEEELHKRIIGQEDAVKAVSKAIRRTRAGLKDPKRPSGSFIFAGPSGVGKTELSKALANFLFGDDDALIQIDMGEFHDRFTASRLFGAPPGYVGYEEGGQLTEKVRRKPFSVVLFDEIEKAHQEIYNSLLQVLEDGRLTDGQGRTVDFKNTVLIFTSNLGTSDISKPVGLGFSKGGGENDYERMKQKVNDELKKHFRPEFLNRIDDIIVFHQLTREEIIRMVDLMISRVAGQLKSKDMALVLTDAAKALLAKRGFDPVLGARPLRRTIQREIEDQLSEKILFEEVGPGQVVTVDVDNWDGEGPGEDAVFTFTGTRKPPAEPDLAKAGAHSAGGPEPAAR

How the values were obtained:
[1] = target: ClpC2 WT (Mycobacterium tuberculosis) (UniProt P9WPC7); assay: competition with a labelled probe; settings: EMSA: 5 mM HEPES-KOH pH 7.5, 30 mM KCl, 1% glycerol, 10 mM MgCl2, room temperature 20 min, 12% polyacrylamide gel; recombinant protein; residues 1-252; protein details: untagged
[2] = target: ClpC1 (Mycobacterium tuberculosis) (UniProt P9WPC9); assay: competition with a labelled probe; settings: 10 nM labelled operator DNA; EMSA: 5 mM HEPES-KOH pH 7.5, 30 mM KCl, 1% glycerol, 10 mM MgCl2, room temperature 20 min, 12% polyacrylamide gel; recombinant protein; residues 1-848; protein details: untagged

| Sequence | binding result [1] | binding result [2] |
| --- | --- | --- |
| AACGTCAACCTACTGTTGACGTC (double strand) [specific_EMSA_23bp] | binds |  |
| ACAATGCATAACGTCAACCTACTGTTGACGTCATGCCGGAG (double strand) [specific_EMSA_41bp] |  | binds |
| GTTGCTTCAGCAGCAGGAGATCGACATCGCAACCCTGCGTA (double strand) [nonspecific_EMSA_41bp] |  | binds |
